Measured values reported in article PMC3036652, “Functional Analysis of an Acid Adaptive DNA Adenine Methyltransferase from Helicobacter pylori 26695” (PLoS ONE, 2011).
pKd: −log10 of the molar value. Construct, isoform or probe ends are uncertain for at least one entry. Protein sequences can lack the tags named with them.

Columns and labels:
[1] = target: T1, HP0593 DNA-(N6-adenine)-methyltransferase (HP0593 MTase) (Helicobacter pylori 26695) (UniProt O25315); assay: EMSA; settings: no cofactor, no metal, weak complexes CI and CII; EMSA: 10 mM potassium phosphate pH 5.5, 7 mM β-mercaptoethanol, 10% glycerol, no divalent metal, 10 min on ice, 0.5-5.0 µM protein, ~100 nM DNA, gel 0.5x TBE 4°C; recombinant protein; residues 1-598; protein details: N-terminal His6 (pET14b); label: 5' 32P
T1 sequence (looked up): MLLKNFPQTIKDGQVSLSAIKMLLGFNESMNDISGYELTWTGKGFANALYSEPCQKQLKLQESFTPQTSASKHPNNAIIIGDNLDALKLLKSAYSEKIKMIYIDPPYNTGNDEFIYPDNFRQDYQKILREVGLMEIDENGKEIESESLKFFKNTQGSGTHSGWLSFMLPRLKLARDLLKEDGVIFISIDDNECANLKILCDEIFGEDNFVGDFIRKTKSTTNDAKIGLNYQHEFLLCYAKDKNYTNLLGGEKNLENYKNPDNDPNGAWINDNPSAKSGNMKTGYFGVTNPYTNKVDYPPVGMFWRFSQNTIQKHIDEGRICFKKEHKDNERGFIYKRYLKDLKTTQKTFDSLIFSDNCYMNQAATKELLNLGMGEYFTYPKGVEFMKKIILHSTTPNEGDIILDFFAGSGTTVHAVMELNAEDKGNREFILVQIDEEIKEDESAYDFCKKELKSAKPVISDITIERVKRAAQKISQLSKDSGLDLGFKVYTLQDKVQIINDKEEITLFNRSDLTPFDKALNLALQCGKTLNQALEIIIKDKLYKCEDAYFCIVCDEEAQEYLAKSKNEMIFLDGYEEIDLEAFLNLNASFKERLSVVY

[2] = target: T1, HP0593 DNA-(N6-adenine)-methyltransferase (HP0593 MTase) (Helicobacter pylori 26695); assay: SPR; settings: no metal; SPR: 10 mM HEPES pH 7.4, 100 mM NaCl, 0.05% P-20, ±1.0 mM MnCl2, 25°C, 1:1 Langmuir global fit; recombinant protein; residues 1-598; protein details: N-terminal His6 (pET14b); label: 5' biotin on top strand, immobilized on SA chip

| Sequence | binding result [1] | pKd [2] |
| --- | --- | --- |
| GATCAATAGATGCGCAGATCATTTACATT (double strand) [duplex 2] | binds |  |
| GATCAATAGATGCGCAGATCATTTACATT (double strand) [duplex 18] |  | 5.55 |
